According to patent US20240300940A1, “Phenothiazinyl Compounds and Uses” (Prosetta Biosciences, Inc., priority 2023, published 2024):
Like-named read-outs stand apart in the source and are kept apart here.

Key:
[1] = test system: MSSA ATCC 25923
[2] = test system: MRSA ATCC 43300
[3] = test system: Macrolide resistant S. aureus ATCC BAA976
[4] = test system: MDR S. aureus ATCC BAA44
[5] = test system: Vancomycin resistant E. faecium ATCC 700221
[6] = test system: ciprofloxacin resistant E. faecium
[7] = test system: sensitive and resistant gram-positive bacteria; conditions: at 4× and 8× MIC concentration

Q: Which “Single step resistance frequency” value ([1]; MSSA ATCC 25923, at 4X MIC) does the source give for CC1(C)C2CN(c3ccc4nc5ccc(N6CC7C(C6)C7(C)C)cc5[s+]c4c3)CC21 (stereo not shown) [Compound 1, 3,7-Di(6,6-dimethyl-3-azabicyclo[3.1.0]hexan-N-yl)phenothiazinium iodide] here?
A: 2 × 10^−9

Q: And the “Single step resistance frequency” value ([1]; MSSA ATCC 25923, at 8X MIC)?
A: 2 × 10^−10

Q: And the “Single step resistance frequency” value ([2]; MRSA ATCC 43300, at 4X MIC)?
A: 1.5 × 10^−9

Q: What about the “Single step resistance frequency” value ([2]; MRSA ATCC 43300, at 8X MIC) of the same compound?
A: 1.5 × 10^−10

Q: And the “Single step resistance frequency” value ([3]; Macrolide resistant S. aureus ATCC BAA976, at 4X MIC)?
A: 8 × 10^−10

Q: And the “Single step resistance frequency” value ([3]; Macrolide resistant S. aureus ATCC BAA976, at 8X MIC)?
A: 8 × 10^−11

Q: And the “Single step resistance frequency” value ([4]; MDR S. aureus ATCC BAA44, at 4X MIC)?
A: 5 × 10^−10

Q: And the “Single step resistance frequency” value ([4]; MDR S. aureus ATCC BAA44, at 8X MIC)?
A: 5 × 10^−11

Q: What about the “Single step resistance frequency” value ([5]; Vancomycin resistant E. faecium ATCC 700221, at 4X MIC) of the same compound?
A: 2 × 10^−9

Q: And the “Single step resistance frequency” value ([5]; Vancomycin resistant E. faecium ATCC 700221, at 8X MIC)?
A: 2 × 10^−9

Q: What about the “Single step resistance frequency” value ([6]; at 4X MIC) of the same compound?
A: 2 × 10^−9

Q: And the “Single step resistance frequency” value ([6]; at 8X MIC)?
A: 2 × 10^−9

Q: What about the “Single step resistance frequency” value [7] of the same compound?
A: less than 10^−9
